Biological target: his-tagged recombinant CFP-SNAP-25-YFP chimera protein (purified from E. coli) (UniProt P60881)

## botulinum neurotoxin A (BoNT/A) holotoxin
  FRET ratio against toxin concentration over time, plate reader: higher toxin concentration resulted in faster decrease of the FRET ratio

— US20160356776
